Assay results taken from US20060079497A1, “Lavendamycin analogues and methods of synthesizing and using lavendamycin analogues” (Ball State University, priority 2004, published 2006).

Biological target: T1, HIV reverse transcriptase (HIV-RT) (Human immunodeficiency virus type 1 group M subtype B, UniProt P04585)
T1 construct: 1 unit/mL of HIV-RT (Worthington Biochemical Corp., Freehold, N.J.); purchased Worthington Biochemical Corp., Freehold, N.J
Assay: HIV-RT assay (3H-TTP incorporation, modified assay of Okada et al.)
Assay type: biochemical
Details: read-out: IC50 against HIV-RT
Experimental: Briefly, the analogues were initially dissolved in either DMSO or HEPES buffer (pH 7.2) and then diluted to the appropriate concentration before addition to the assay mixtures. […] Several control wells without any inhibitors were also included on each microtiter plate. The reactions were allowed to proceed for 1 h at 37° C. […] A more detailed description of reaction conditions is provided below in the Examples. The concentration of drug which inhibited 50% of the enzyme activity (IC50) was determined by using the computer software program Calcusyn, which plots the dose-effect curves from the inhibition data and calculates the IC50 for each drug.
The assay procedure described below is adapted from Okada et al. (Okada, H.; Mukai, H.; Inouye, Y; Nakamura, S. “Biological Properties of Streptonigrin Derivatives II. Inhibition of Reverse Transcriptase Activity,” J. Antibiot., 1986, 39, 306-308). […] For each assay, the reaction mixture containing 8× buffer, double distilled H2O, ^3HTTP, template-primer and HIV-RT was pre-mixed in a 15-mL sterile tube in quantities required for the particular experiment. […] After drying the individual filter papers were added to 5 mL Scintiverse E (Fisher Scientific, Chicago, Ill.) scintillation fluid and the amount of 3H-TTP uptake measured as counts per minute on a Beckman liquid scintillation counter. […]

“AZT-triphosphate [AZT-TP, reference compound]” was tested, and the IC50 was 12 nM.
